A mixed list of measured activities; the numbers were collected in NIAID ChemDB.

Common to all: enzyme or target tests; agent: HIV-1; protein: Reverse transcriptase; read-out: IC50

Lines come from different laboratories, so protocols vary.

compound,strain,mutations,method,value
O=C1c2ccccc2C(=O)c2c1ccc(O)c2O,,,RT activity,45 µg/mL
CCN1c2ncc(CCOc3ccc(C(=O)NNCC(=O)O)cc3C)cc2C(=O)N(C)c2cccnc21,IIIB,RT-K103N Y181C,nucleotide incorporation / radiometric,>0.1 µM
CCNc1cccnc1N1CCN(C(=O)c2cc3cc(OCc4ccccc4)ccc3[nH]2)CC1,,,nucleotide incorporation,<100 µM
CCN1c2ncc(CCOc3ccc(-c4cc[n+](C)cc4)cc3C)cc2C(=O)N(C)c2cccnc21.[O-]C(F)(F)F,IIIB,RT-K103N Y181C,nucleotide incorporation / radiometric,<0.05 µM
CC(C)Nc1cccnc1N1CCN(C(=O)c2cc3cc(OCC(=O)O)ccc3[nH]2)CC1,,,nucleotide incorporation,<100 µM
Cc1cc(C)cc(S(=O)(=O)c2c(C(=O)NC(C)C(N)=O)[nH]c3ccc(Cl)cc23)c1,,WT,RT activity,0.026 µM
C[C@@H]1CN(c2nc3c(cc2F)c(=O)c(C(=O)O)cn3-c2cccc3ccccc23)C[C@H](C)N1,,,ELISA,>1 µg/mL
Nc1nc2c(ccn2[C@H]2C[C@H](F)[C@@H](COP(=O)(O)OP(=O)(O)OP(=O)(O)O)O2)c(=O)[nH]1,,,RT activity,0.27 µM
CCN1c2ncc(CCOc3cccc(-c4ccccc4)c3)cc2C(=O)N(C)c2cccnc21,IIIB,,nucleotide incorporation / radiometric,<0.05 µM
COC(=O)CCC(=O)NC[C@@H]1CC[C@H](n2cc(-c3cccs3)c(=O)[nH]c2=O)O1,,,nucleotide incorporation / radiometric,100 µg/mL
CC(C)(Nc1nc(Nc2c(F)cccc2-c2ccccc2)[nH]c(=O)n1)c1ccc2c(c1)OCO2,,,RT activity,100 µM
CCNc1cccnc1N1CCN(C(=O)c2cc(C)c(OC)c(C)c2)CC1,,,nucleotide incorporation,<100 µM
Cc1occc1C(=S)Nc1ccc(Cl)c(C(=O)OCC2CC2)c1,,RT-K103N,nucleotide incorporation / radiometric,>50 µM
O=C(O)CN(CC(=O)O)Cc1cc2c(c(O)c1O)C(=O)c1ccccc1C2=O,,,RT activity,19 µg/mL
C=CS(=O)(=O)N1CCC(NS(=O)(=O)c2c(C(N)=O)[nH]c3ccc(Br)cc23)C1,BH10,Y181C,RT activity / radiometric,18.2 µM
Cc1cccc(-c2ccccc2)c1Nc1nc(NCc2ccc3c(ccn3S(C)(=O)=O)c2)nc(=O)[nH]1,,,RT activity,100 µM
CN1CCN(c2cc3c(cc2F)c(=O)c(C(=O)O)cn3-c2ccc3ccccc3c2)CC1.CS(=O)(=O)O,,,ELISA,>1 µg/mL
C=CCO/N=C/c1cc(NC(=S)c2ccoc2C)ccc1Cl,,RT-V106A,nucleotide incorporation / radiometric,20 µM
O=C(O)CCC(=O)NC[C@@H]1CC[C@H](n2cc(-c3cccs3)c(=O)[nH]c2=O)O1,,,nucleotide incorporation / radiometric,>200 µg/mL
CCN1c2ncc(CCOc3ccc(-c4cc(C)ccn4)cc3C)cc2C(=O)N(C)c2cccnc21,IIIB,RT-K103N Y181C,nucleotide incorporation / radiometric,<0.05 µM
CC(C)Nc1cccnc1N1CCN(C(=O)c2cc3cc(OCC(=O)OCc4ccccc4)ccc3[nH]2)CC1,,,nucleotide incorporation,<100 µM
CC(C(=O)CN1CCN(c2cccc(Cl)c2)CC1)N1C(=O)c2ccccc2C1=O,,,nucleotide incorporation / radiometric,43.77 µM
CCN(CC)c1cccnc1N1CCN(C(=O)c2cc3ccccc3[nH]2)CC1,,,nucleotide incorporation,<100 µM
CC1CN(c2nc3c(cc2F)c(=O)c(C(=O)O)cn3-c2ccc3ccccc3c2)CCN1.CS(=O)(=O)O,,,ELISA,>1 µg/mL
CCC(C)Nc1cccnc1N1CCN(C(=O)c2cc3ccccc3[nH]2)CC1,,,nucleotide incorporation,<100 µM
O=c1nc(NCc2ccc3cc[nH]c3c2)nc(Nc2cccc(Oc3ccccc3)c2)[nH]1,,,RT activity,100 µM
CC(C(=O)CN1CCN(c2ccc(F)cc2)CC1)N1C(=O)c2ccccc2C1=O,,,nucleotide incorporation / radiometric,35.2 µM
CCNc1ccccc1N1CCN(C(=O)c2cc3cc(OC)ccc3[nH]2)CC1,,,nucleotide incorporation,<100 µM
C=C(C)C1C=C[C@@H](OC(=O)c2cccnc2)C23COC(C)(C(=O)[C@@]4(OC(C)=O)C[C@H](C)[C@H](OC(=O)CCC)C4[C@H]2OC(=O)CC)C13,,,nucleotide incorporation,79.9 µg/mL
NC[C@@H]1CC[C@H](n2cc(-c3cccs3)c(=O)[nH]c2=O)O1,,,nucleotide incorporation / radiometric,200 µg/mL
CS(=O)(=O)O.C[C@@H]1CN(c2cc3c(cc2F)c(=O)c(C(=O)O)cn3-c2cccc3ccccc23)C[C@H](C)N1,,,ELISA,~1 µg/mL
CC(C(=O)CN1CCN(c2ccccc2)CC1)N1C(=O)c2ccccc2C1=O,,,nucleotide incorporation / radiometric,486 µM
O=c1[nH]c(=O)n([C@H]2CC[C@@H](COP(=O)(O)OP(=O)(O)OP(=O)(O)O)O2)cc1-c1cccs1,,,nucleotide incorporation / radiometric,6 µg/mL
CC(C)Nc1cccnc1N1CCN(C(=O)c2cc3cccnc3[nH]2)CC1,,,nucleotide incorporation,<100 µM
O=C1c2ccccc2C(=O)c2c1cc(S(=O)(=O)O)c(O)c2O,,,RT activity,8.5 µg/mL
CS(=O)(=O)O.C[C@@H]1CN(c2cc3c(cc2F)c(=O)c(C(=O)O)cn3-c2ccc3ccccc3c2)C[C@H](C)N1,,,ELISA,<1 µg/mL
C=C(C)C1C=C[C@@H](OC(=O)c2cccnc2)C23COC(C)(C(=O)[C@@]4(OC(C)=O)C[C@H](C)[C@H](OC(=O)CC)C4[C@H]2OC(=O)CCC)C13,,,nucleotide incorporation,>200 µg/mL
CS(=O)(=O)O.N[C@H]1CCN(c2cc3c(cc2F)c(=O)c(C(=O)O)cn3-c2cccc3ccccc23)C1,,,ELISA,>1 µg/mL
CC(C(=O)CN1CCN(c2ccc([N+](=O)[O-])cc2)CC1)N1C(=O)c2ccccc2C1=O,,,nucleotide incorporation / radiometric,29.8 µM

For reference, 3 entries again:

compound	strain	mutations	method	value
C[C@@H]1CN(c2nc3c(cc2F)c(=O)c(C(=O)O)cn3-c2cccc3ccccc23)C[C@H](C)N1			ELISA	>1 µg/mL
CCN1c2ncc(CCOc3ccc(-c4cc[n+](C)cc4)cc3C)cc2C(=O)N(C)c2cccnc21.[O-]C(F)(F)F	IIIB	RT-K103N Y181C	nucleotide incorporation / radiometric	<0.05 µM
Cc1cc(C)cc(S(=O)(=O)c2c(C(=O)NC(C)C(N)=O)[nH]c3ccc(Cl)cc23)c1		WT	RT activity	0.026 µM

ICn: concentration for n% inhibition. Blank or dashed fields: not listed here.